Results reported in article PMC11684019, “Unveiling the Antimycobacterial Potential of Novel 4-Alkoxyquinolines: Insights into Selectivity, Mechanism of Action, and In Vivo Exposure” (Journal of Medicinal Chemistry, 2024).

Tested on: M. tuberculosis qcrB-T313A mutant strain
Type: cell-based, Mycobacterium tuberculosis

CCc1ccc(NCCCOc2cc(C)nc3ccc(Br)cc23)cc1 [8t, N-(3-((6-bromo-2-methylquinolin-4-yl)oxy)propyl)-4-ethylaniline]
MIC against qcrB-T313A resistant strain relative to MIC H37Rv: approximately 62.5 fold
